{"source": "PubChem BioAssay AID1259414 (Drosophila RNAi Screening Center, 2018)", "screen": "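Host factors increasing or decreasing Wolbachia levels in cultured fly cells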 (primary screen)", "cells": "Drosophila JW18 cells infected with Wolbachia", "reagent": "long dsRNA against Drosophila genes, 0.25 µg dsRNA per well of a 384-well plate", "timing": "5 days", "challenge": "cells persistently infected with Wolbachia before knock-down; no added drug", "detection": "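Imaged fluorescence in situ signal for Wolbachia 23S rRNA per DAPI-counted host cell, given as a robust z-score within each plate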", "reading the numbers": "Wolbachia per cell robust z: higher = more Wolbachia per host cell than the plate typical", "call rule": "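Active if absolute robust z reaches 1.5 in two or more of three replicates, leaving out multi- or no-target dsRNAs, genes unexpressed in JW18 and A1 wells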", "note": "The screen tested about 24,000 reagents; shown is a random part of those with a known target gene and a result. Of all reagents, about 1,210 (5%) were called active. 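Inactive calls also include excluded dsRNAs with several or no targets, genes unexpressed in JW18, and well A1, regardless of score.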 A number with no mark means an inactive call. The numbers tell different reagents against one gene apart."}
The opening 2 records as a preview:
{"target gene":"Abl (Abl tyrosine kinase)","dsRNA no.":1,"Wolbachia per cell robust z, rep 1":-0.247,"Wolbachia per cell robust z, rep 2":-0.231,"Wolbachia per cell robust z, rep 3":-0.942}
{"target gene":"Abl (Abl tyrosine kinase)","dsRNA no.":2,"Wolbachia per cell robust z, rep 1":0.14,"Wolbachia per cell robust z, rep 2":-0.253,"Wolbachia per cell robust z, rep 3":-0.0188}

The listing, from the start:
{"target gene":"Abl (Abl tyrosine kinase)","dsRNA no.":1,"Wolbachia per cell robust z, rep 1":-0.247,"Wolbachia per cell robust z, rep 2":-0.231,"Wolbachia per cell robust z, rep 3":-0.942}
{"target gene":"Abl (Abl tyrosine kinase)","dsRNA no.":2,"Wolbachia per cell robust z, rep 1":0.14,"Wolbachia per cell robust z, rep 2":-0.253,"Wolbachia per cell robust z, rep 3":-0.0188}
{"target gene":"CG5026","dsRNA no.":1,"Wolbachia per cell robust z, rep 1":0.505,"Wolbachia per cell robust z, rep 2":-0.0225,"Wolbachia per cell robust z, rep 3":-0.654}
{"target gene":"lncRNA:CR32160 (long non-coding RNA:CR32160)","dsRNA no.":1,"Wolbachia per cell robust z, rep 1":-1.27,"Wolbachia per cell robust z, rep 2":0.487,"Wolbachia per cell robust z, rep 3":-0.15}
{"target gene":"Ass (Argininosuccinate synthase)","dsRNA no.":1,"Wolbachia per cell robust z, rep 1":1.14,"Wolbachia per cell robust z, rep 2":-0.128,"Wolbachia per cell robust z, rep 3":0.439}
{"target gene":"CG7737","dsRNA no.":1,"Wolbachia per cell robust z, rep 1":0.629,"Wolbachia per cell robust z, rep 2":1.59,"Wolbachia per cell robust z, rep 3":-0.269}
{"target gene":"mex1 (midgut expression 1)","dsRNA no.":1,"Wolbachia per cell robust z, rep 1":0.526,"Wolbachia per cell robust z, rep 2":-0.799,"Wolbachia per cell robust z, rep 3":-0.721}
{"target gene":"CG17075","dsRNA no.":1,"Wolbachia per cell robust z, rep 1":1.07,"Wolbachia per cell robust z, rep 2":1.67,"Wolbachia per cell robust z, rep 3":-1.03}
{"target gene":"CG17075","dsRNA no.":2,"Wolbachia per cell robust z, rep 1":0.854,"Wolbachia per cell robust z, rep 2":0.502,"Wolbachia per cell robust z, rep 3":1.3}
{"target gene":"Nurf-38 (Nucleosome remodeling factor - 38kD)","dsRNA no.":1,"Wolbachia per cell robust z, rep 1":1.05,"Wolbachia per cell robust z, rep 2":0.981,"Wolbachia per cell robust z, rep 3":1.22}
{"target gene":"Nurf-38 (Nucleosome remodeling factor - 38kD)","dsRNA no.":2,"Wolbachia per cell robust z, rep 1":-0.07,"Wolbachia per cell robust z, rep 2":-0.322,"Wolbachia per cell robust z, rep 3":0.436}
{"target gene":"CR33315 (pseudo)","dsRNA no.":1,"Wolbachia per cell robust z, rep 1":0.676,"Wolbachia per cell robust z, rep 2":-0.0279,"Wolbachia per cell robust z, rep 3":0.638}
{"target gene":"CR33315 (pseudo)","dsRNA no.":2,"Wolbachia per cell robust z, rep 1":1.15,"Wolbachia per cell robust z, rep 2":-0.416,"Wolbachia per cell robust z, rep 3":-1.49}
{"target gene":"CG2120","dsRNA no.":1,"Wolbachia per cell robust z, rep 1":0.0946,"Wolbachia per cell robust z, rep 2":-0.892,"Wolbachia per cell robust z, rep 3":-3.6}
{"target gene":"CG2120","dsRNA no.":2,"Wolbachia per cell robust z, rep 1":1.2,"Wolbachia per cell robust z, rep 2":0.13,"Wolbachia per cell robust z, rep 3":1.96}
{"target gene":"bae (retired record)","dsRNA no.":1,"Wolbachia per cell robust z, rep 1":0.303,"Wolbachia per cell robust z, rep 2":0.413,"Wolbachia per cell robust z, rep 3":0.371}
{"target gene":"bae (retired record)","dsRNA no.":2,"Wolbachia per cell robust z, rep 1":1.22,"Wolbachia per cell robust z, rep 2":0.449,"Wolbachia per cell robust z, rep 3":-1.86}
